Data taken from US20040039062A1, “Urea, ruminally synthesizable mainly to microbial crude protein” (Agri-Nutrients Technology Group, Inc., priority 2002, published 2004).

System: Fresh rumen fluid
Assay: In-vitro urea conversion test: ruminal synthesis of urea to microbial crude protein (MCP) in rumen fluid
Design: species or system heifer
Description: A series of urea conversion in-vitro tests were arranged using the following materials: (1) Fresh rumen fluid withdrawn via a pump through a strainer from a heifer receiving no feed for the prior two days. (2) Simulated Saliva composition of E. I. McGougal in Biochemical Journal, Vol. 43, page 106. (3) Cellulose energy source, Whatman Chromedia Microgranular Cellulose, free from other nutrient compounds. […] The in-vitro tests were run with each sample in a 250 ml Erlenmeyer flask receiving the ingredients listed as follows: [table] The test flasks were placed in a constant temperature bath operating at 39° C. Carbon dioxide was used to displace the air in the flasks. Samples amounting to 10 grams were withdrawn on an accurate time schedule with the air in the sample container replaced by carbon dioxide. The samples were immediately treated with 1 percent mercuric chloride to terminate microbial activity in the samples. The samples were analyzed for total nitrogen, ammonia nitrogen, and […] by difference.

For `NC(N)=O` [Test No. 6, urea], the “NH3 Conc. (8 hours)” value was 0.087 Wt % and the “Total N Content (8 hours)” value was 0.09 Wt %.
